Anti-infective test results gathered from many reports (values: NIAID ChemDB through PubChem).

Shared fields: host cell toxicity; cells: MT-4; method: MTT / absorbance; read-out: CC50

CCn is the concentration with n% toxicity to the cells.

| SMILES | value |
|---|---|
| Cc1cccc(Nc2ccccc2C(=O)Nc2ccc(C(=O)/C=C/c3ccc(Cl)cc3)cc2)c1C | 2.17 µM |
| COC1=NC=C[C@@H]2O[C@@H]3SC(OC)=NC=C[C@@H]3O[C@@H]2S1 | 44 µM |
| COC(=O)c1ccc(NC(=O)COc2cccnc2-c2cccc3ccccc23)c(Cl)c1 | 9.35 µM |
| FC(F)(F)c1cccc(-n2nnnc2Nc2cccc(Br)c2)c1 | 20 µM |
| N#Cc1ccc(NC(=O)COc2cccnc2-c2cccc3ccccc23)cc1 | 39.5 µM |
| NC1=NC(N)c2nc(-c3ccccn3)c(-c3ccccn3)nc2N1 | 10.52 µM |
| FC(F)(F)c1cccc(-n2nnnc2Nc2ccc(Cl)cc2)c1 | 48 µM |
| Cc1ccc(NC(=O)COc2cccnc2-c2cccc3ccccc23)c([N+](=O)[O-])c1 | 19.3 µM |
| COc1ccc(Nc2nnnn2-c2cccc(C(F)(F)F)c2)cc1 | 72 µM |
| CCCOC(=O)[C@H](Cc1ccccc1)NP(=O)(CO[C@H]1CO[C@@H](n2cc(F)c(=O)[nH]c2=O)C1)N[C@@H](Cc1ccccc1)C(=O)OCCC | >64 µM |
| Cc1cn([C@H]2C[C@H](N=[N+]=[N-])[C@@H](CO)O2)c(=O)[nH]c1=O | >7.48 µM |
| Cc1cn([C@H]2C[C@H](N=[N+]=[N-])[C@@H](CO)O2)c(=O)[nH]c1=O | >7.48 µM |
| NC(=O)c1ccc(NC(=O)COc2cccnc2-c2cccc3ccccc23)cc1 | 29.4 µM |
| O=C1CSC(=Nc2cccc(C(F)(F)F)c2)N1c1cccc(F)c1 | >100 µM |
| Cc1ccc(/C=C/C(=O)c2ccc(NC(=O)c3ccccc3Nc3cccc(C)c3C)cc2)cc1 | 76.9 µM |
| COc1ccc(-c2csc3nc4nc(-c5ccccn5)c(-c5ccccn5)nc4c(=O)n23)cc1 | 18.99 µM |
| O=C1CSC(=Nc2cccc(C(F)(F)F)c2)N1c1ccccc1F | >100 µM |
| CC(C)(C)c1ccc(-c2ncccc2OCC(=O)Nc2ccc(C(N)=O)cc2)cc1 | 197 µM |
| S=c1nc[nH]c2nc(-c3ccccn3)c(-c3ccccn3)nc12 | 115 µM |
| Cc1cn([C@H]2C[C@H](N=[N+]=[N-])[C@@H](CO)O2)c(=O)[nH]c1=O | >25 µM |
| COc1ccc(C(=O)CSc2nc3nc(C4=CCC=C=N4)c(-c4ccccn4)nc3c(=O)[nH]2)cc1 | 36.1 µM |
| Cc1cccc(Nc2ccccc2C(=O)Nc2ccc(C(=O)/C=C/c3ccccc3)cc2)c1C | >125 µM |
| Nc1nc(N)c2ncn([C@H]3C[C@@H](OCP(=O)(O)O)CO3)c2n1 | >378 µM |
| O=C1CSC(=Nc2cccc(C(F)(F)F)c2)N1c1ccc([N+](=O)[O-])cc1 | 48 µM |
| CCCOC(=O)[C@H](Cc1ccccc1)NP(=O)(CO[C@H]1CO[C@@H](n2cnc3c(N)nc(N)nc32)C1)N[C@@H](Cc1ccccc1)C(=O)OCCC | 61.4 µM |
| O=C1CSC(=Nc2cccc(C(F)(F)F)c2)N1c1cccc(C(F)(F)F)c1 | >100 µM |

Lines come from different laboratories, so protocols vary.